Results of unrelated studies side by side (data: NIAID ChemDB).

Common to all: toxicity to cultured cells; cells: SupT1; measure: CC50

Rows are shuffled and stem from different studies. CCn: concentration that lowers growth or viability of the cells by n%.

COc1cc(O)c2c(c1)C(=O)C(CC(C)=O)=C(C)C2=O ; read by: MTT ; result: 94.3 µg/mL
CC(C)=CCC/C(C)=C/CC/C(C)=C/Cc1c(O)cc2c(c1OS(=O)(=O)O)CN(C[C@@H]1O[C@@H](O)[C@@H](O)[C@H](O)[C@H]1O)C2=O ; read by: WST / absorbance ; result: >100 µM
Cc1ccc(S(=O)(=O)N2CCCN(Cc3ccccc3)CCCN(S(=O)(=O)c3ccc(C)cc3)CCC2)cc1 ; read by: trypan blue / propidium iodide ; result: >75 µM
CCc1cccn1-c1ccsc1C(=O)O ; read by: WST / absorbance ; result: 520 µM
Fc1ccc(OCCC(Cn2ccnc2)c2ccc(Cl)cc2Cl)cc1 ; read by: WST / absorbance ; result: 47.5 µM
C=C1CN(S(=O)(=O)c2ccc(C)cc2)CCCN(Cc2ccccc2)CCCN(S(=O)(=O)c2ccc(C)cc2)C1 ; result: 142 µM
C=C1CN(S(=O)(=O)c2ccc(C)cc2)CCCN(Cc2cccnc2)CCCN(S(=O)(=O)c2ccc(C)cc2)C1 ; read by: trypan blue / propidium iodide ; result: >75 µM
CC(C)=CCC/C(C)=C/CC/C(C)=C/Cc1c(O)cc2c(c1OS(=O)(=O)O)CN(CCCC(=O)O)C2=O ; read by: WST / absorbance ; result: >100 µM
CCC(C)CCCCCCCC[C@@H]1CC(=O)N[C@@H](CCC(=O)O)C(=O)N[C@@H](CC(C)C)C(=O)N[C@H](CC(C)C)C(=O)N[C@@H](C(C)C)C(=O)N[C@@H](CC(=O)O)C(=O)N[C@H](CC(C)C)C(=O)N[C@@H](CC(C)C)C(=O)O1 ; read by: WST / absorbance ; result: 67.9 µM
COC1=CC(=O)c2c(O)c(C)c3c(c2C1=O)OC(C)C3 ; read by: MTT ; result: 135.2 µg/mL
C=C1CN(S(=O)(=O)c2ccc(C)cc2)CCCN(CCC)CCCN(S(=O)(=O)c2ccc(C)cc2)C1 ; read by: trypan blue / propidium iodide ; result: >75 µM
CCCCCCCCCCC[C@@H]1CC(=O)N[C@@H](CCC(=O)O)C(=O)N[C@@H](CC(C)C)C(=O)N[C@H](CC(C)C)C(=O)N[C@@H](C(C)C)C(=O)N[C@@H](CC(=O)O)C(=O)N[C@H](CC(C)C)C(=O)N[C@@H](CC(C)C)C(=O)O1 ; read by: WST / absorbance ; result: >100 µM
NC1=NC2C(C=CN2CC(CO)CCO)C(=O)N1 ; result: 107 µM
C=C1CN(S(=O)(=O)c2ccc(C)cc2)CCCN(C(=O)OCCC)CCCN(S(=O)(=O)c2ccc(C)cc2)C1 ; read by: trypan blue / propidium iodide ; result: 40.4 µM
CCC(C)CCCCCCC[C@@H]1CC(=O)N[C@@H](CCC(=O)O)C(=O)N[C@@H](CC(C)C)C(=O)N[C@H](CC(C)C)C(=O)N[C@@H](C(C)C)C(=O)N[C@@H](CC(=O)O)C(=O)N[C@H](CC(C)C)C(=O)N[C@@H](C(C)C)C(=O)O1 ; read by: WST / absorbance ; result: 92.9 µM
CC(C)=CCC/C(C)=C/CC/C(C)=C/Cc1c(O)cc2c(c1OS(=O)(=O)O)CN(CCO)C2=O ; read by: WST / absorbance ; result: 99.7 µM
O[C@@H]1[C@H](O)[C@H](O)CO[C@H]1n1c(Br)nc2cc(Cl)c(Cl)cc21 ; result: >102 µM
NC(=O)c1c(Cl)c(-c2cccnc2)n2c1CCCC2 ; result: 236 µM
C=C1CN(S(C)(=O)=O)CCCN(Cc2ccccc2)CCCN(S(C)(=O)=O)C1 ; read by: trypan blue / propidium iodide ; result: >75 µM
CCC(C)CCCCCCCC[C@@H](O)CC(=O)N[C@@H](CCC(=O)O)C(=O)N[C@@H](CC(C)C)C(=O)N[C@H](CC(C)C)C(=O)N[C@H](C(=O)N[C@@H](CC(=O)O)C(=O)N[C@H](CC(C)C)C(=O)N[C@@H](CC(C)C)C(=O)O)C(C)C ; read by: WST / absorbance ; result: >100 µM
C=C1CN(S(=O)(=O)c2ccc(Br)cc2)CCCN(Cc2ccccc2)CCCN(S(=O)(=O)c2ccc(Br)cc2)C1 ; read by: trypan blue / propidium iodide ; result: >75 µM
COC(=O)CC[C@@H]1NC(=O)C[C@@H](CCCCCCCC(C)C)OC(=O)[C@H](C(C)C)NC(=O)[C@@H](CC(C)C)NC(=O)[C@H](CC(=O)OC)NC(=O)[C@H](C(C)C)NC(=O)[C@@H](CC(C)C)NC(=O)[C@H](CC(C)C)NC1=O ; read by: WST / absorbance ; result: 86.7 µM
Nc1ccn(C[C@@H](CO)OCP(=O)(O)O)c(=O)n1 ; result: 90 µM
C=C1CN(S(=O)(=O)c2ccc(C)cc2)CCCN(CC2CC2)CCCN(S(=O)(=O)c2ccc(C)cc2)C1 ; read by: trypan blue / propidium iodide ; result: >75 µM

Again, the opening 3 rows:

| structure | read by | result |
|---|---|---|
| COc1cc(O)c2c(c1)C(=O)C(CC(C)=O)=C(C)C2=O | MTT | 94.3 µg/mL |
| CC(C)=CCC/C(C)=C/CC/C(C)=C/Cc1c(O)cc2c(c1OS(=O)(=O)O)CN(C[C@@H]1O[C@@H](O)[C@@H](O)[C@H](O)[C@H]1O)C2=O | WST / absorbance | >100 µM |
| Cc1ccc(S(=O)(=O)N2CCCN(Cc3ccccc3)CCCN(S(=O)(=O)c3ccc(C)cc3)CCC2)cc1 | trypan blue / propidium iodide | >75 µM |